The values that follow come from paper PMC2625307 (Journal of molecular biology, 2008).

For one assay, the target named is YU2 gp120 (Human immunodeficiency virus type 1 group M subtype B, UniProt P35961). The assay can be described thus: Contact surface area of gp120, YU2. Details: species or system HIV-1.
For a further assay, the system named is YU-2 env. Format: cell-based, HIV-1 group M. To be noted: JC53BL-13 cells, genetic distance to HXBc2 0.16766.
The next assay relates to SUMA d736-68. In kind it is cell-based, HIV-1 group M. To be noted: JC53BL-13 cells, genetic distance to HXBc2 0.18273.
Another assay relates to BaL. In kind it is cell-based, HIV-1 group M. To be noted: PM1 cells, genetic distance to HXBc2 0.13532.
The next assay has as its system IIIB. In kind it is cell-based, HIV-1 group M. The following applies: PM1 cells, genetic distance to HXBc2 0.03060.
The subject of another assay is NL4.3 env. In kind it is cell-based, HIV-1 group M. The following applies: JC53BL-13 cells, genetic distance to HXBc2 0.05769.
In the next assay the test system is WEAU 16-8M. In kind it is cell-based, HIV-1 group M. To be noted: JC53BL-13 cells, genetic distance to HXBc2 0.20241.

Each structure is given as a SMILES string.

Take `CC(C)C[C@@H]1NC(=O)CNC(=O)[C@H](CC(C)C)NC(=O)[C@H](CO)NC(=O)[C@H](CCCCN)NC(=O)[C@@H]2CSSC[C@@H](C(=O)N[C@H](C(N)=O)C(C)C)NC(=O)[C@H](C)NC(=O)[C@@H]3CSSC[C@H](NC(=O)[C@H](Cc4ccccc4)NC(=O)[C@H](Cc4c[nH]cn4)NC(=O)[C@H](CC(C)C)NC(=O)[C@H](CC(N)=O)NC(=O)CCSSC[C@H](NC(=O)[C@H](CCCCN)NC(=O)CNC(=O)[C@H](CC(C)C)NC1=O)C(=O)N[C@@H](C)C(=O)NCC(=O)N[C@@H](CO)C(=O)N[C@@H](Cc1ccc(-c4ccccc4)cc1)C(=O)N3)C(=O)N[C@@H](CCC(N)=O)C(=O)N[C@@H](CC(C)C)C(=O)N[C@@H](CCCNC(=N)N)C(=O)N2` [CD4M33]: the “Contact surface area of gp120, total” value is on record as 527.6 Å^2 at YU2 gp120 (asymmetric unit molecule (1)) and 543.1 Å^2 on YU2 gp120 (asymmetric unit molecule (2)). For the same compound, the half-maximal inhibitory concentration (IC50) with YU-2 env turned out to be 210 nM; with SUMA d736-68 it was 4 nM; in the assay with BaL, 120 nM; in the assay on IIIB, 12 nM; with NL4.3 env it was 5 nM.
Consider `CC(C)C[C@@H]1NC(=O)CNC(=O)[C@H](CC(C)C)NC(=O)[C@H](CO)NC(=O)[C@H](CCCCN)NC(=O)[C@@H]2CSSC[C@@H](C(=O)N[C@H](C(N)=O)C(C)C)NC(=O)[C@H](C)NC(=O)[C@@H]3CSSC[C@H](NC(=O)[C@H](Cc4ccccc4)NC(=O)[C@H](Cc4c[nH]cn4)NC(=O)[C@H](CC(C)C)NC(=O)[C@H](CC(N)=O)NC(=O)CCSSC[C@H](NC(=O)[C@H](CCCNC(=N)N)NC(=O)CNC(=O)[C@H](CC(C)C)NC1=O)C(=O)N[C@@H](C)C(=O)N1CCC[C@@H]1C(=O)N[C@@H]([C@@H](C)O)C(=O)N[C@@H](Cc1ccccc1)C(=O)N3)C(=O)N[C@@H](CCC(N)=O)C(=O)N[C@@H](CC(C)C)C(=O)N[C@@H](CCCNC(=N)N)C(=O)N2` [[Phe^23]M47], for which the figures for the IC50 in the assay with WEAU 16-8M, in the assay with BaL and with NL4.3 env were 47 nM, 33 nM and 4 nM, respectively. Besides, the “Contact surface area of gp120, total” value at YU2 gp120 (asymmetric unit molecule (1)) is 397.2 Å^2; at YU2 gp120 (asymmetric unit molecule (2)), 439.2 Å^2.
